Pooled drug test results. Numbers come from NIAID ChemDB, via PubChem.

All rows: host cell toxicity; cells: PBMC; read by: MTS; read-out: CC50

Conditions beyond the fields shown may differ between rows.

smiles,value
O=C(CNC(=O)COc1ccccc1)NCc1ccc(C(=O)N2CCCCC2)cc1,>100 µM
CCOC(=O)c1cc(O)c(O)c(O)c1,>200 µM
Cc1ccc2nc(Cl)c(/C=C/C(=O)c3cc(C)oc3C)cc2c1,>100 µM
COc1cc(OC)c(C(=O)OCc2nc3ccccc3nc2C)cc1OC,>100 µM
Cc1ccc2nc(Cl)c(/C=C/C(=O)c3sccc3Cl)cc2c1,15.8 µM
Cc1nc(C(CN)NC(=O)c2ccc(-c3ccc4c(c3)OCO4)[nH]2)sc1CO,62.8 µM
Cc1nc2ccccc2nc1COC(=O)c1ccc2ccccc2c1O,>100 µM
C=C(C)[C@@H]1CC[C@]2(CCNCCN3CCN(Cc4ccccc4)CC3)CC[C@]3(C)[C@H](CC[C@@H]4[C@@]5(C)CC[C@H](OC(=O)CC(C)(C)C(=O)O)C(C)(C)[C@@H]5CC[C@]43C)[C@@H]12,>1 µM
Cc1nc2ccccc2nc1COC(=O)c1ccc(O)cc1O,>100 µM
CC(Cc1nc(-c2ccc(O)c(O)c2)cs1)n1cc(Cl)cn1,20 µM
Cc1ccc2nc(Cl)c(/C=C/C(=O)c3ccc(Cl)s3)cc2c1,25.7 µM
Cc1cn([C@H]2C[C@H](N=[N+]=[N-])[C@@H](CO)O2)c(=O)[nH]c1=O,>1 µM
NC(=O)CCNC[C@H](Cc1ccc(O)cc1)NC[C@H](Cc1ccc(O)cc1)NC[C@H](Cc1ccc(O)cc1)NC[C@H](Cc1ccc(O)cc1)NC[C@H](Cc1ccc(O)cc1)NC[C@@H](N)Cc1ccc(O)cc1,>100 µM
C/C(=C/C(=O)c1cccnc1)Nc1ccc(O)cc1,>100 µM
Cc1cn([C@H]2C[C@H](N=[N+]=[N-])[C@@H](CO)O2)c(=O)[nH]c1=O,>100 µM
COc1cc(-c2ccc(Nc3ccccc3C(=O)O)c(OC)c2)ccc1Nc1ccccc1C(=O)O,>100 µM

A second listing of 2 rows from above:

{"smiles": "CCOC(=O)c1cc(O)c(O)c(O)c1", "value": ">200 µM"}
{"smiles": "COc1cc(OC)c(C(=O)OCc2nc3ccccc3nc2C)cc1OC", "value": ">100 µM"}

CCn: concentration that lowers growth or viability of the cells by n%.